Bounds are passed on as bounds.

Experiment [1] has as its target human Nav1.7 voltage-gated sodium channel (human), Q15858. Description: cell-based or functional assay.
Experiment [2] has as its target human Nav1.4 voltage-gated sodium channel (human), P35499. In words: cell-based or functional assay.

B1: Pra-[Nle6; Gln22; Glu28]JzTx-V(1-29) (peptide)
peptide: GYCQKWLWTCDSKRACCEGLRCQLWCRKEI
modifications: not checked
Turning to B1, in experiment [1], the PX hNav1.7 Tonic IC50 is 35.3 nM.

B2: CyA-[Nle6, Atz(palmitate)17, Glu28]JzTx-V(1-29) (peptide)
peptide: AYCQKWLWTCDSKRACCAGLRCKLWCRKEI
modifications: not checked
B2 returned a PX hNav1.7 Tonic IC50 in experiment [1] of 260 nM.

B3: CyA-[Nle6; Glu12, 28; Pra17]JzTx-V(1-29) (peptide)
peptide: AYCQKWLWTCDSERACCGGLRCKLWCRKEI
modifications: not checked
In experiment [2], B3 gave a Nav1.4/Nav1.7 of 291 and a PX hNav1.4 Tonic IC50 of 253 nM. The molecule also gave a PX hNav1.7 Tonic IC50 in experiment [1] of 0.87 nM.

B4: CyA-[Nle6; Pra17; 7-BrW24; Glu28]JzTx-V(1-29) (peptide)
peptide: AYCQKWLWTCDSKRACCGGLRCKLWCRKEI
modifications: not checked
Molecule B4 gave a PX hNav1.7 Tonic IC50 in experiment [1] of 25.3 nM.

B5: Pra-[Nle6; Nva23; Glu28]JzTx-V(1-29) (peptide)
peptide: GYCQKWLWTCDSKRACCEGLRCKVWCRKEI
modifications: not checked
Turning to B5, in experiment [1], the PX hNav1.7 Tonic IC50 was 3.03 nM.

B6: Pra-[Nle6; Glu12, 28; Lys17]JzTx-V(1-29) (peptide)
peptide: GYCQKWLWTCDSERACCKGLRCKLWCRKEI
modifications: not checked
With B6, in experiment [2], the Nav1.4/Nav1.7 turned out to be 46 and the PX hNav1.4 Tonic IC50 was found to be 405 nM. For the same molecule, the PX hNav1.7 Tonic IC50 in experiment [1] is 8.76 nM.

B7: Pra-[Nle6; Tyr20]JzTx-V(1-29) (peptide)
peptide: GYCQKWLWTCDSKRACCEGLYCKLWCRKII
modifications: not checked
In the case of B7, in experiment [1], the PX hNav1.7 Tonic IC50 turned out to be 5.98 nM.

B8: Glu-Pra-[Nle6; Glu11, 28]JzTx-V(1-29) (peptide)
peptide: EGYCQKWLWTCDEKRACCEGLRCKLWCRKEI
modifications: not checked
As for B8, in experiment [2], the Nav1.4/Nav1.7 amounted to 452 and the PX hNav1.4 Tonic IC50 came out at 1050 nM. Moreover, the PX hNav1.7 Tonic IC50 in experiment [1] was determined as 2.33 nM.

B9: Glu-Nva-[Glu1, 11, 28; Nle6; Pra17]JzTx-V(1-29) (peptide)
peptide: EVECQKWLWTCDEKRACCGGLRCKLWCRKEI
modifications: not checked
In experiment [1], B9 came in with a PX hNav1.7 Tonic IC50 of 15.2 nM.

B10: Pra-[Nle6; Phe20; Glu28]JzTx-V(1-29) (peptide)
peptide: GYCQKWLWTCDSKRACCEGLFCKLWCRKEI
modifications: not checked
As for B10, in experiment [1], the PX hNav1.7 Tonic IC50 came to 10.3 nM.

B11: CyA-[Nle6; Pra11; Glu28]JzTx-V(1-29) (peptide)
peptide: AYCQKWLWTCDGKRACCEGLRCKLWCRKEI
modifications: not checked
As for B11, in experiment [2], the Nav1.4/Nav1.7 stood at 2670 and the PX hNav1.4 Tonic IC50 worked out at 517 nM. Moreover, the PX hNav1.7 Tonic IC50 in experiment [1] is 0.193 nM.

B12: CyA-[Nle6; Pra17; 6-MeW24; Glu28]JzTx-V(1-29) (peptide)
peptide: AYCQKWLWTCDSKRACCGGLRCKLWCRKEI
modifications: not checked
For the molecule B12, the PX hNav1.7 Tonic IC50 in experiment [1] stood at 14 nM.

B13: Pra-[Nle6; Ala20; Glu28]JzTx-V(1-29) (peptide)
peptide: GYCQKWLWTCDSKRACCEGLACKLWCRKEI
modifications: not checked
Regarding B13, the PX hNav1.7 Tonic IC50 in experiment [1] is 905 nM.

B14: CyA-[Glu1, 11, 12, 14, 28; Nle6; Pra17]JzTx-V(1-29) (peptide)
peptide: AECQKWLWTCDEERECCGGLRCKLWCRKEI
modifications: not checked
As for B14, the PX hNav1.7 Tonic IC50 in experiment [1] was over 1000 nM.

B15: Pra-[Nle6; Lys19; Glu28]JzTx-V(1-29) (peptide)
peptide: GYCQKWLWTCDSKRACCEGKRCKLWCRKEI
modifications: not checked
B15 showed a PX hNav1.7 Tonic IC50 in experiment [1] of over 1000 nM.

B16: CyA-[Nle6, Pra17, Glu20]JzTx-V(1-29) (peptide)
peptide: AYCQKWLWTCDSKRACCGGLECKLWCRKII
modifications: not checked
In experiment [2], B16 gave a Nav1.4/Nav1.7 of 98.

B17: [Nle6; Pra12; Glu28]JzTx-V(1-29) (peptide)
peptide: YCQKWLWTCDSGRACCEGLRCKLWCRKEI
modifications: not checked
In turn, B17 returned a PX hNav1.7 Tonic IC50 in experiment [1] of 1.35 nM.

B18: Pra-[Nle6; Ala19; Glu28]JzTx-V(1-29) (peptide)
peptide: GYCQKWLWTCDSKRACCEGARCKLWCRKEI
modifications: not checked
B18 had a PX hNav1.7 Tonic IC50 in experiment [1] of over 1000 nM.

B19: CyA-[Nle6; Pra12; Glu28]JzTx-V(1-29) (peptide)
peptide: AYCQKWLWTCDSGRACCEGLRCKLWCRKEI
modifications: not checked
In experiment [2], B19 showed a Nav1.4/Nav1.7 of 62 and a PX hNav1.4 Tonic IC50 of 92.1 nM. Further, the PX hNav1.7 Tonic IC50 in experiment [1] was 1.48 nM.

B20: Pra-[Nle6; Glu19, 28]JzTx-V(1-29) (peptide)
peptide: GYCQKWLWTCDSKRACCEGERCKLWCRKEI
modifications: not checked
In experiment [1], B20 displayed a PX hNav1.7 Tonic IC50 of over 1000 nM.

B21: CyA-[Nle6, Pra17, Glu20, Tyr28]JzTx-V(1-29) (peptide)
peptide: AYCQKWLWTCDSKRACCGGLECKLWCRKYI
modifications: not checked
As to B21, the Nav1.4/Nav1.7 in experiment [2] came to 20.

B22: CyA-[Nle6, Atz(His tag)17, Glu28]JzTx-V(1-29) (peptide)
peptide: AYCQKWLWTCDSKRACCAGLRCKLWCRKEI
modifications: not checked
In turn, B22 came in with a PX hNav1.7 Tonic IC50 in experiment [1] of 34.3 nM.

B23: CyA-[Nle6; Glu14, 28; Pra17]JzTx-V(1-29) (peptide)
peptide: AYCQKWLWTCDSKRECCGGLRCKLWCRKEI
modifications: not checked
With B23, in experiment [2], the Nav1.4/Nav1.7 came out at 109 and the PX hNav1.4 Tonic IC50 turned out to be 130 nM. Further, the PX hNav1.7 Tonic IC50 in experiment [1] was 1.19 nM.

B24: Pra-[Nle6; Arg19; Glu28]JzTx-V(1-29) (peptide)
peptide: GYCQKWLWTCDSKRACCEGRRCKLWCRKEI
modifications: not checked
For the molecule B24, in experiment [1], the PX hNav1.7 Tonic IC50 was over 1000 nM.

B25: [Nle6; AzK11; Glu20; Trp29]JzTx-V(1-29) (peptide)
peptide: YCQKWLWTCDKKRACCEGLECKLWCRKIW
modifications: not checked
For the molecule B25, in experiment [1], the PX hNav1.7 Tonic IC50 stood at 435 nM.

B26: Homodimeric Peptide No. 5 (peptide)
peptide: DCLGAFRKCIPDADKCCRPNLVCSRLHRWCKYVF
modifications: not checked
B26 came in with a Nav1.7 PX IC50 in experiment [1] of 91 nM.

B27: [CyA1; Nle6; Pra17; Gln22; Glu28]JzTx-V(1-29) (peptide)
peptide: ACQKWLWTCDSKRACCGGLRCQLWCRKEI
modifications: not checked
Turning to B27, in experiment [1], the PX hNav1.7 Tonic IC50 was determined as 47.6 nM.

B28: Pra-[Nle6; Glu18, 28]JzTx-V(1-29) (peptide)
peptide: GYCQKWLWTCDSKRACCEELRCKLWCRKEI
modifications: not checked
B28 gave a PX hNav1.7 Tonic IC50 in experiment [1] of over 1000 nM.

B29: Pra-[Nle6; Glu14, 28]JzTx-V(1-29) (peptide)
peptide: GYCQKWLWTCDSKRECCEGLRCKLWCRKEI
modifications: not checked
With B29, in experiment [2], the Nav1.4/Nav1.7 was 333 and the PX hNav1.4 Tonic IC50 was 325 nM. The molecule also returned a PX hNav1.7 Tonic IC50 in experiment [1] of 0.975 nM.

B30: CyA-[Nle6, Atz(GGGGS-SA21-amide)17, Glu28]JzTx-V(1-29) (peptide)
peptide: AYCQKWLWTCDSKRACCAGLRCKLWCRKEI
modifications: not checked
Regarding B30, the PX hNav1.7 Tonic IC50 in experiment [1] was found to be 299 nM.

B31: Pra-[Nle6; Glu22, 28]JzTx-V(1-29) (peptide)
peptide: GYCQKWLWTCDSKRACCEGLRCELWCRKEI
modifications: not checked
In experiment [2], B31 displayed a Nav1.4/Nav1.7 of over 442 and a PX hNav1.4 Tonic IC50 of over 10000 nM. Further, in experiment [1], the PX hNav1.7 Tonic IC50 worked out at 22.6 nM.

B32: Pra-[Nle6; Lys20; Glu28]JzTx-V(1-29) (peptide)
peptide: GYCQKWLWTCDSKRACCEGLKCKLWCRKEI
modifications: not checked
In experiment [2], B32 displayed a Nav1.4/Nav1.7 of 357 and a PX hNav1.4 Tonic IC50 of 185 nM. In experiment [1], this molecule yielded a PX hNav1.7 Tonic IC50 of 0.519 nM.

B33: CyA-[Nle6; Pra17; 6-BrW24; Glu28]JzTx-V(1-29) (peptide)
peptide: AYCQKWLWTCDSKRACCGGLRCKLWCRKEI
modifications: not checked
Molecule B33 showed a PX hNav1.7 Tonic IC50 in experiment [1] of 8.47 nM.

B34: Pra-[Nle6; Lys17; Glu28]JzTx-V(1-29) (peptide)
peptide: GYCQKWLWTCDSKRACCKGLRCKLWCRKEI
modifications: not checked
In the case of B34, in experiment [2], the Nav1.4/Nav1.7 came out at 24 and the PX hNav1.4 Tonic IC50 turned out to be 33.9 nM. Further, the PX hNav1.7 Tonic IC50 in experiment [1] is 1.42 nM.

B35: CyA-[Glu1, 12, 14, 28; Nle6; Pra17]JzTx-V(1-29) (peptide)
peptide: AECQKWLWTCDSERECCGGLRCKLWCRKEI
modifications: not checked
Take B35: the PX hNav1.7 Tonic IC50 in experiment [1] was over 1000 nM.

(Values after patent US20160024159A1, “Potent and selective inhibitors of Nav1.7” (published 2016).)
